# US7695930B2, “Method for the detection, identification and/or quantification of microoganisms with peptidase activity using phenoxazinone derivatives as enzyme substrates” (Biomerieux, priority 2003, dated 2010)
# What was measured:
# Assay in all cases: Leucine-peptidase detection on agar medium (Example 11)
# Assay type in all cases: cell-based
# Candida albicans = conditions: 50 mg/l
# Experimental: (§1) The detection medium was prepared by mixing 1.4 g of biogelytone (bioMérieux), 0.84 g of meat extract (bioMérieux), 2.24 g of NaCl (Merck), 280 μl of a solution of IPTG (isopropylthio-β-D-galactopyranoside, BIOSYNTH) in water (concentration 10 g/l) and 4.2 g of European agar (bioMérieux).
# (§2) The substrate of the invention obtained in Example 2, in which the amino acid is leucine (leucine-9-aminobenzo[a]phenoxazin-5-one or Leu-ABP), or else a substrate of the prior art, which is leucine-aminomethylcoumarin (Leu-AMC, BACHEM), was then added in the following way: 280 ml of osmosed water were added to the medium, and the mixture was melted in a waterbath at 100° C. The mixture was autoclaved for 15 min at 121° C. and cooled to 50° C. in a waterbath.
# (§3) The medium was then poured into Petri dishes.
# (§4) The coloration of these colonies, the diffusion, and also the intensity of this coloration were noted.
# (§5) The results were expressed as intensity of coloration using an arbitrary scale ranging from 0 to 4 as a basis and also as diffusion also using an arbitrary scale ranging from 0 to 4 as a basis.
# Citrobacter freundii = tested on: Citrobacter freundii
# Experimental: as §1, §2, §3, §4, §5
# Enterobacter cloaccae = tested on: Enterobacter cloaccae
# Experimental: as §1, §2, §3, §4, §5
# Enterococcus faecalis = tested on: Enterococcus faecalis
# Experimental: as §1, §2, §3, §4, §5
# Escherichia coli = conditions: 50 mg/l
# Experimental: as §1, §2, §3, §4, §5
# Klebsellia pneumoniae = tested on: Klebsellia pneumoniae
# Experimental: as §1, §2, §3, §4, §5
# Pseudomonas aeruginosa = tested on: Pseudomonas aeruginosa
# Experimental: as §1, §2, §3, §4, §5
# Serratia marcescens = tested on: Serratia marcescens
# Experimental: as §1, §2, §3, §4, §5
# Staphylococcus aureus = conditions: 50 mg/l
# Experimental: as §1, §2, §3, §4, §5
compound,measurement,setting,value
"Cc1cc(=O)oc2cc(NC(=O)[C@@H](N)CC(C)C)ccc12 [Leu-AMC, leucine-aminomethylcoumarin, reference compound]","diffusion, scale 0 to 4",Candida albicans; 24 h,4
same,"diffusion, scale 0 to 4",Candida albicans; 48 h,4
same,"diffusion, scale 0 to 4","Citrobacter freundii; 24 h, 50 mg/l",4
same,"diffusion, scale 0 to 4","Citrobacter freundii; 48 h, 50 mg/l",4
same,"diffusion, scale 0 to 4","Enterobacter cloaccae; 24 h, 50 mg/l",4
same,"diffusion, scale 0 to 4","Enterobacter cloaccae; 48 h, 50 mg/l",4
same,"diffusion, scale 0 to 4","Enterococcus faecalis; 24 h, 50 mg/l",4
same,"diffusion, scale 0 to 4","Enterococcus faecalis; 48 h, 50 mg/l",4
same,"diffusion, scale 0 to 4",Escherichia coli; 24 h,4
same,"diffusion, scale 0 to 4",Escherichia coli; 48 h,4
same,"diffusion, scale 0 to 4","Klebsellia pneumoniae; 24 h, 50 mg/l",4
same,"diffusion, scale 0 to 4","Klebsellia pneumoniae; 48 h, 50 mg/l",4
same,"diffusion, scale 0 to 4","Pseudomonas aeruginosa; 24 h, 50 mg/l",4
same,"diffusion, scale 0 to 4","Pseudomonas aeruginosa; 48 h, 50 mg/l",4
same,"diffusion, scale 0 to 4","Serratia marcescens; 24 h, 50 mg/l",4
same,"diffusion, scale 0 to 4","Serratia marcescens; 48 h, 50 mg/l",4
same,"diffusion, scale 0 to 4",Staphylococcus aureus; 24 h,4
same,"diffusion, scale 0 to 4",Staphylococcus aureus; 48 h,4
leucine-9-aminobenzo[a]phenoxazin-5-one [Leu-ABP],"diffusion, scale 0 to 4","Citrobacter freundii; 24 h, 25 mg/l",0.5
same,"diffusion, scale 0 to 4","Citrobacter freundii; 24 h, 50 mg/l",0.5
same,"diffusion, scale 0 to 4","Citrobacter freundii; 48 h, 25 mg/l",0.5
same,"diffusion, scale 0 to 4","Citrobacter freundii; 48 h, 50 mg/l",0.75
same,"diffusion, scale 0 to 4","Citrobacter freundii; 48 h, 100 mg/l",0.25
same,"diffusion, scale 0 to 4","Enterobacter cloaccae; 24 h, 25 mg/l",0.5
same,"diffusion, scale 0 to 4","Enterobacter cloaccae; 24 h, 50 mg/l",0.5
same,"diffusion, scale 0 to 4","Enterobacter cloaccae; 48 h, 25 mg/l",0.5
same,"diffusion, scale 0 to 4","Enterobacter cloaccae; 48 h, 50 mg/l",0.75
same,"diffusion, scale 0 to 4","Enterobacter cloaccae; 48 h, 100 mg/l",0.25
same,"diffusion, scale 0 to 4","Enterococcus faecalis; 24 h, 25 mg/l",0.25
same,"diffusion, scale 0 to 4","Enterococcus faecalis; 24 h, 50 mg/l",0.25
same,"diffusion, scale 0 to 4","Enterococcus faecalis; 48 h, 25 mg/l",0.25
same,"diffusion, scale 0 to 4","Enterococcus faecalis; 48 h, 50 mg/l",0.25
same,"diffusion, scale 0 to 4","Enterococcus faecalis; 48 h, 100 mg/l",0.0
same,"diffusion, scale 0 to 4","Klebsellia pneumoniae; 24 h, 25 mg/l",0.25
same,"diffusion, scale 0 to 4","Klebsellia pneumoniae; 24 h, 50 mg/l",0.5
same,"diffusion, scale 0 to 4","Klebsellia pneumoniae; 48 h, 25 mg/l",0.25
same,"diffusion, scale 0 to 4","Klebsellia pneumoniae; 48 h, 50 mg/l",0.75
same,"diffusion, scale 0 to 4","Klebsellia pneumoniae; 48 h, 100 mg/l",0.0
same,"diffusion, scale 0 to 4","Pseudomonas aeruginosa; 48 h, 25 mg/l",0.5
same,"diffusion, scale 0 to 4","Pseudomonas aeruginosa; 48 h, 50 mg/l",1
same,"diffusion, scale 0 to 4","Pseudomonas aeruginosa; 48 h, 100 mg/l",0.5
same,"diffusion, scale 0 to 4","Pseudomonas aeruginosa; 48 h, 200 mg/l",0.3
same,"diffusion, scale 0 to 4","Serratia marcescens; 48 h, 25 mg/l",0.5
same,"diffusion, scale 0 to 4","Serratia marcescens; 48 h, 50 mg/l",0.5
same,"diffusion, scale 0 to 4","Serratia marcescens; 48 h, 100 mg/l",0.0
